This is an account of results in US9175077B2, “Nucleic acids encoding biologically active polypeptides derived from a novel early stage pregnancy factor designated maternin (MA)” (NOBEL BIOSCIENCES LLC, priority 1999, dated 2015).

One experiment relates to HIV-1 gene expression. Briefly: HIV-1 transgenic mice, pups feeding from treated mothers. To be noted: mouse, in vivo. From the text: The transgenic mice contain 5.1 kb of the HIV-1 proviral genome, lacking gag and pol genes and 2.3 kb of vector.^172 The newly developed transgenic rat contains the same HIV-1 sequences and vector. In both birth weights and features, the homozygous animals are born with normal weight and gross appearance, but in untreated animals shortly after birth, high levels of env and regulatory genes are expressed promptly correlating with failure to develop, cachexia, hyperkeratosis, immune abnormalities, kidney and CNS lesions, and early mortality (death of >90% by 10 days of age).
Twenty-four hours after birth the mothers were either inoculated subcutaneously daily for 10 days or received an implanted osmotic pump delivering 30-150 pmoles of either native or synthetic MA or pMA. Various control polypeptides were used at equimolar or vast molar excess. The newborn pups were then allowed to feed from the foster mother breast milk over the entire period. Since the animals are at risk from needle inoculation, breastfeeding was the chosen route for MA administration.
In these experiments total RNA was extracted from samples of skin RNA206 10 days after birth of MA treated and untreated mice. One ug of RNA was reverse transcribed into cDNA using random hexamer primer and […] reverse transcriptase (Life Technologies, Inc.) in a final vol. Of 30 ul. Three ul of each reaction was used for PCR amplification of the HIV-1 gene sequences (env, tat, nef, and rev) as described […], and glyceraldehyde 3-phosphate dehydrogenase (GAPDH) was amplified from each sample for normalization. After 25 cycles, 10% of the products were resolved by electrophoresis on 2% agarose gels, transferred to nitrocellulose membranes by Southern blotting, and hybridized to fluorescein isthiocyanate-labeled oligonucleotide probes complementary to internal sequences of the amplicons […]. Bound probes were detected by chemiluminescence (Amersham) and relative mRNA levels determined by densitrometry after normalization with GAPDH mRNA levels.

The test system of another experiment is HIV-1. Particulars: controls at similar, equimolar or higher concentrations. On the procedure: Virus (MOI of 0.001) was added to 10^6 cells in RPMI-1640 with 10% FCS. One hour later the various polypeptides were added once. The cells cultured for 3 days with 5 ug PHA and 20 i.m. of II-2/ml at 37°, after which virus was estimated by determining p24 (HIV-1) or p27 (SIV) (Organon-Teknika).
The effect of native and synthetic MA on HIV-1 infection in vitro was evaluated using PHA and II-2 stimulated primary peripheral blood cells (PBMC), CD4+ T-cells enriched fractions from PBMC, and CD14+ macrophage enriched fractions. Infection was with HIV-1 IIIB (PBMC and CD4+ T-cells), HIV-1 Ba-L (macrophages), and two primary HIV-1 isolates not passaged in any cell line (PBMC).

Regarding “recombinant hCG: recombinant hCG [reference compound]”, in the experiment with HIV-1 gene expression, the “HIV-1 viral expression in tissues” value is reported as “high expression” and the “mice dead by day 10” value is recorded as 10 of 10.

As for “CR127: highly purified native hCG [reference compound]”, in the experiment on HIV-1 gene expression, the “HIV-1 viral expression in tissues” value is “high expression” and the “mice dead by day 10” value is on record as 10 of 10.

Turning to “α-hCG: α-chain of hCG [reference compound]”, in the experiment on HIV-1, the “inhibition of HIV replication (qualitative)” value was “no effect”.
